Results of unrelated studies side by side (data: NIAID ChemDB).

Common to all: target-level tests; organism: Hepatitis C virus; protein: NS5B polymerase; read-out: IC50

a–b is a range or a potency band. ICn is the concentration giving n% inhibition. An empty or dashed field is not shown. Rows are shuffled and stem from different studies.

O=C(O)/C=C/c1ccc(CC2CCN(CNC(=O)c3ccc4c(c3)nc(-c3ccoc3)n4C3CCCCC3)CC2)cc1 ; value: 1–5 µM
O=C(O)c1ccc(N2C(=O)/C(=C\c3ccc(-c4cc(C(F)(F)F)ccc4Cl)o3)SC2=S)cc1 ; value: 0.056–83.5 µM
COc1ccc([C@@H](C)NC(=O)c2ccc3c(c2)nc(-c2ccccn2)n3C2CCCCC2)cc1OC ; value: 1–5 µM
O=C(O)c1ccc(-c2ccc(/C=C3/Sc4ccccc4C3=O)o2)cc1 ; value: 0.056–83.5 µM
C[C@@H]1CCCC[C@H]1n1c(-c2cccc3c2OCO3)nc2cc(C(=O)NC3(C(=O)Nc4ccc(/C=C/C(=O)O)cc4)CCCC3)ccc21 ; value: 0.5–5 µM
O=C(N[C@H](C(=O)O)c1c[nH]c2ccc(O)cc12)c1ccc2c(c1)nc(-c1nccc3ccccc13)n2C1CCCCC1 ; value: 1–5 µM
CCN(C(=O)c1ccc(C)cc1)c1cc(-c2ccccc2)sc1C(=O)O ; value: 3 µM
COc1ccc(C(NC(=O)c2ccc3c(c2)nc(-c2ccoc2)n3C2CCCCC2)C(=O)O)cc1OC ; value: <1 µM
O=C(Cn1nc(C(=O)NOCc2cccc3ccccc23)nc1C(=O)N[C@H]1CCCC[C@@H]1OCc1ccccc1)N[C@H]1CCCC[C@@H]1OCc1ccccc1 ; value: 0.1–1 µM
C[C@@H]1CCC[C@@H](C)C1n1c(-c2ccoc2)nc2cc(C(=O)N[C@@H](Cc3c[nH]c4ccc(O)cc34)C(=O)O)ccc21 ; value: <1 µM
O=C(Cn1nc(NS(=O)(=O)Cc2ccc([N+](=O)[O-])cc2)cc1C(=O)N[C@H]1CCCC[C@@H]1OCc1ccccc1)N[C@H]1CCCC[C@@H]1OCc1ccccc1 ; value: 0.1–1 µM
O=C(O)COc1ccc2[nH]cc(C[C@H](NC(=O)c3ccc4c(c3)nc(-c3ccc(OCC(=O)NCCNC(=S)Nc5ccc(-c6c7ccc(=O)cc-7oc7cc(O)ccc67)cc5C(=O)O)cc3)n4C3CCCCC3)C(=O)O)c2c1 ; value: <1 µM
CC(NC(=O)c1ccc2c(c1)nc(-c1ccoc1)n2C1CCCCC1)C(=O)Nc1ccc(CC(=O)O)cc1 ; value: 0.5–5 µM
CN(C(=O)Cn1nc(C(=O)NCCc2ccccc2)cc1C(=O)N[C@H]1CCCC[C@@H]1OCc1ccccc1)[C@H]1CCCC[C@@H]1OCc1ccccc1 ; value: 0.1–1 µM
O=C(O)/C=C/c1ccc(NC(=O)C2(NC(=O)c3ccc4c(c3)nc(-c3ccco3)n4C3CCC3)CCCC2)cc1 ; value: 0.5–5 µM
CC(C)C(=O)c1nc(C(=O)N[C@H]2CCCC[C@@H]2OCc2ccccc2)n(CC(=O)N[C@H]2CCCC[C@@H]2OCc2ccccc2)n1 ; value: 0.1–1 µM
O=C(O)Cc1ccc(NC(=O)c2ccc3c(c2)nc(-c2ccoc2)n3C2CCCCC2)cc1 ; value: 10–25 µM
O=C(Cn1nc(C(=O)O)cc1C(=O)NC1C2CC3CC(C2)CC1C3)N[C@H]1CCCCC1OCc1ccccc1 ; value: ≥1 µM
O=C(N[C@@H](Cc1c[nH]c2ccc(O)cc12)C(=O)O)c1ccc2c(c1)nc(-c1ccoc1)n2C1CCCCC1 ; value: <1 µM
CCC[C@]1(CC(=O)O)OCCc2c1[nH]c1c(C)ccc(C#N)c21 ; strain or isolate: A5 genotype 1A ; value: 1.4 µM
O=C(O)/C=C/c1ccc(NC(=O)C2(NC(=O)c3ccc4c(c3)nc(-c3ccccc3)n4C3CCCCC3)CCCC2)cc1 ; value: 0.5–5 µM
O=C(Cn1nc(C(=O)N2CCCc3ccccc32)cc1C(=O)N[C@H]1CCCC[C@@H]1OCc1ccccc1)N[C@H]1CCCC[C@@H]1OCc1ccccc1 ; value: 0.1–1 µM
O=C(O)/C=C/c1ccc(NC(=O)C2(NC(=O)c3ccc4c(c3)nc(-c3ccoc3)n4C3CCCC3)CCCC2)cc1 ; value: <0.5 µM
O=C(Cn1nc(C(=O)O)nc1C(=O)N[C@H]1CCCC[C@@H]1OCC1CCCCC1)N[C@H]1CCCC[C@@H]1OCc1ccccc1 ; value: 0.1–1 µM
COC(CC(=O)O)c1ccc(NC(=O)C2(NC(=O)c3ccc4c(c3)nc(-c3ccoc3)n4C3CCCCC3)CCCC2)cc1 ; value: 0.5–5 µM
O=C(N[C@H](C(=O)O)c1c[nH]c2ccc(O)cc12)c1ccc2c(c1)nc(-c1ccc(O)cc1O)n2C1CCCCC1 ; value: 1–5 µM
CC(NC(=O)c1ccc2c(c1)nc(-c1ccoc1)n2C1CCCCC1)C(=O)Nc1cc(C(=O)O)ccc1O ; value: 0.5–5 µM
COC(=O)c1sc(-c2ccccc2)cc1N(C)S(=O)(=O)c1cc(C)c(Cl)cc1C ; value: >100 µM

For reference, 4 entries again:

| compound | strain or isolate | value |
|---|---|---|
| CC(C)C(=O)c1nc(C(=O)N[C@H]2CCCC[C@@H]2OCc2ccccc2)n(CC(=O)N[C@H]2CCCC[C@@H]2OCc2ccccc2)n1 | - | 0.1–1 µM |
| O=C(O)Cc1ccc(NC(=O)c2ccc3c(c2)nc(-c2ccoc2)n3C2CCCCC2)cc1 | - | 10–25 µM |
| CN(C(=O)Cn1nc(C(=O)NCCc2ccccc2)cc1C(=O)N[C@H]1CCCC[C@@H]1OCc1ccccc1)[C@H]1CCCC[C@@H]1OCc1ccccc1 | - | 0.1–1 µM |
| CC(NC(=O)c1ccc2c(c1)nc(-c1ccoc1)n2C1CCCCC1)C(=O)Nc1cc(C(=O)O)ccc1O | - | 0.5–5 µM |